Reference: PMC5820429 (Influenza and Other Respiratory Viruses, 2018)

Set-up: species or system patients
Conditions: in vivo

## CCOC(=O)C1=C[C@@H](OC(CC)CC)[C@H](NC(C)=O)[C@@H](N)C1 [oseltamivir]
  Symptom resolution in patients with emerging resistant virus: ≤ 6 days
